Patent EP0311108A2, “Anti-HIV active 3'-azido-2,6-diaminopurine-2',3'-dideoxyriboside” (Stichting REGA V.Z.W., priority 1987, dated 1989)

Key:
HIV (HTLV-IIIB) = assay: Inhibition of HIV-induced cytopathogenicity in MT4 cells (trypan blue exclusion); assay type: cell-based; conditions: ratio of 50% cell toxic dose to 50% antivirally effective dose
[1] = tested on: Moloney murine sarcoma virus (MSV); assay: Inhibition of MSV-induced C3H cell transformation; assay type: cell-based; conditions: ratio of 50% cell toxic dose to 50% antivirally effective dose
Method: For transformation of C3H mouse embryo cells by Moloney murine sarcoma virus (MSV), confluent monolayers of C3H cells in 1 ml wells of Tissue Culture Cluster plates were infected with 150 foci-forming units of MSV during 90 min, whereafter medium was replaced by 1 ml fresh culture medium containing different concentrations of test compound. After 6-7 days incubation at 37°C, transformation of the cell cultures was monitored microscopically.

Row | Compound | S.I., HIV-induced cytopathogenicity in MT4 cells (HIV (HTLV-IIIB)) | S.I., MSV-induced C3H cell transformation [1]
1 | Nc1nc(N)c2ncn([C@H]3CC[C@@H](CO)O3)c2n1 [ddDAPR, 2,6-Diamino-9-(2,3-dideoxy-β-D-glycero-pentofuranosyl)purine] | 106 | ≧ 11
2 | [N-]=[N+]=N[C@H]1C[C@H](n2cnc3c(N)nc(N)nc32)O[C@@H]1CO [AzddDAPR, 2,6-diamino-9-(3-azido-2,3-dideoxy-β-D-erythro-pentofuranosyl)purine] | 157 | > 200
